Results of unrelated studies side by side (data: NIAID ChemDB).

Common to all: tests in culture; agent: Human cytomegalovirus; method: cytopathic effect; endpoint: EC50

An empty or dashed field is not shown.

{"compound": "Nc1nc2c(ncn2C=C2CC2CO)c(=O)[nH]1", "cells": "HFF", "strain or isolate": "AD169", "result": "0.04 µM"}
{"compound": "COc1cc(F)c([C@H]2C[C@H](O)[C@@H](CO)O2)cc1[N+](=O)[O-]", "cells": "HEL", "strain or isolate": "AD169", "result": ">200 µM"}
{"compound": "Nc1nc2c(ncn2C[C@]2(CO)C[C@H]2CO)c(=O)[nH]1", "cells": "VERO", "result": "10–100 µM"}
{"compound": "CO[C@H](CO)[C@@H](O)CCn1cnc2c(N)ncnc21", "cells": "HEL", "strain or isolate": "AD169", "result": ">400 µg/mL"}
{"compound": "Nc1ncnc2c1ncn2CCCC(O)CF", "cells": "HEL", "strain or isolate": "DAVIS", "result": ">50 µg/mL"}
{"compound": "OC[C@H]1O[C@H](c2cc(Br)c(F)cc2F)C[C@@H]1O", "cells": "HEL", "strain or isolate": "AD169", "result": ">200 µM"}
{"compound": "CN1C=CCC(C(=O)O[C@H]2C[C@H](n3cc(I)c(=O)[nH]c3=O)O[C@@H]2CO)=C1", "cells": "HFF", "result": "178 µM"}
{"compound": "N#CC1C(c2ccccc2)Nc2sccc2S1(=O)=O", "cells": "HEL", "strain or isolate": "DAVIS", "result": "50 µg/mL"}
{"compound": "Cc1ccn2c(CSCc3ccccc3)c(C(F)(F)F)nc2c1", "cells": "HEL", "strain or isolate": "AD169", "result": "0.95 µg/mL"}
{"compound": "CCCCCCCc1cc2cnc(=O)[nH]c2o1", "cells": "HEL", "strain or isolate": "DAVIS", "result": ">400 µM"}
{"compound": "Cc1ccn2c(CSCc3ccccc3)c(-c3cccs3)nc2c1", "cells": "HEL", "strain or isolate": "DAVIS", "result": "7 µg/mL"}
{"compound": "Cc1cc([C@@H]2C[C@H](O)[C@@H](CO)O2)c(F)cc1Cl", "cells": "HEL", "strain or isolate": "DAVIS", "result": "158 µM"}
{"compound": "Cc1ccc(S(=O)(=O)n2cc(I)c(=O)[nH]c2=O)cc1", "cells": "HEL", "strain or isolate": "DAVIS", "result": ">80 µM"}
{"compound": "CO[C@H](CO)[C@@H](O)CCn1cnc2c(=O)[nH]c(N)nc21", "cells": "HEL", "strain or isolate": "DAVIS", "result": ">400 µg/mL"}
{"compound": "O=c1[nH]c(=O)n([C@H]2C[C@H](O)[C@@H](CO)O2)cc1/C=C/I", "cells": "HFF", "result": "116 µM"}
{"compound": "Cc1cc([C@H]2C[C@H](O)[C@@H](CO)O2)c(Cl)cc1F", "cells": "HEL", "strain or isolate": "DAVIS", "result": ">200 µM"}
{"compound": "CCCCCCCCc1cc2cnc(=O)[nH]c2o1", "cells": "HEL", "strain or isolate": "DAVIS", "result": ">400 µM"}
{"compound": "Nc1nccc2c1ncn2[C@@H]1C[C@H](CO)[C@@H](O)[C@H]1O", "cells": "HEL", "strain or isolate": "AD169", "result": "7 µg/mL"}
{"compound": "CC1=C[C@H](n2cnc3c(N)ncnc32)C[C@@]1(CO)c1ccccc1", "cells": "HEL", "strain or isolate": "AD169", "result": ">100 µg/mL"}
{"compound": "Nc1nc2c(ncn2COC(CO)CO)c(=O)[nH]1", "cells": "HEL", "strain or isolate": "AD169", "result": "1.75 µM"}
{"compound": "CCCCCCCC(=O)NCC#Cc1cn([C@H]2C[C@H](O)[C@@H](COP(=O)(N[C@@H](C)C(=O)OCc3ccccc3)Oc3ccccc3)O2)c(=O)[nH]c1=O", "cells": "HEL", "strain or isolate": "DAVIS", "result": ">100 µM"}
{"compound": "Nc1nc2ncn(/C=C3\\C(F)C3(CO)CO)c2c(=O)[nH]1", "cells": "HFF", "strain or isolate": "TOWNE", "result": ">100 µM"}
{"compound": "Cc1ccn2c(CSCc3ccccc3)c(-c3ccc4ccccc4c3)nc2c1", "cells": "HEL", "strain or isolate": "DAVIS", "result": "1.2 µg/mL"}
{"compound": "N#CC1C(c2ccc(Cl)cc2)Nc2ccccc2S1(=O)=O", "cells": "HEL", "strain or isolate": "LY9990 (ganciclovir-resistant)", "result": "2.7 µg/mL"}
{"compound": "Cc1ccn2c(CSCc3ccccc3)c(-c3ccco3)nc2c1", "cells": "HEL", "strain or isolate": "AD169", "result": ">50 µg/mL"}
{"compound": "Cc1nc2ccccn2c1NC(=O)c1ccccc1", "cells": "HEL", "strain or isolate": "AD169", "result": ">50 µg/mL"}
{"compound": "Nc1nc2c(ncn2[C@@H]2C=C[C@H](CO)CC2)c(=O)[nH]1", "cells": "VERO", "result": "1–10 µM"}
{"compound": "Cc1ccn2c(CSCc3ccccc3)c(-c3ccncc3)nc2c1", "cells": "HEL", "strain or isolate": "AD169", "result": "3.2 µg/mL"}
{"compound": "Cc1nc2ccccn2c1NC(=O)Nc1ccccc1", "cells": "HEL", "strain or isolate": "AD169", "result": "50 µg/mL"}
{"compound": "Cc1cn(CC[C@H](O)CCO)c(=O)[nH]c1=O", "cells": "HEL", "strain or isolate": "AD169", "result": ">400 µg/mL"}
{"compound": "Nc1ncnc2c1ncn2C=C1CC1CO", "cells": "HFF", "strain or isolate": "AD169", "result": "1 µM"}
{"compound": "Nc1nc2c(ncn2[C@@H]2CO[C@H](CO)[C@@H](O)C2)c(=O)[nH]1", "cells": "VERO", "result": "1–10 µM"}
{"compound": "N#CC1=C(c2ccccc2)Nc2sccc2S1(=O)=O", "cells": "HEL", "strain or isolate": "DAVIS", "result": ">50 µg/mL"}
{"compound": "COC(=O)[C@H](C)NP(=O)(OC[C@H]1C/C1=C/n1cnc2c(=O)[nH]c(N)nc21)Oc1ccccc1", "cells": "HFF", "strain or isolate": "AD169", "result": "7.6 µM"}
{"compound": "Nc1ccn(C[C@@H](CO)OCP(=O)(O)O)c(=O)n1", "cells": "HEL", "strain or isolate": "AD169", "result": "0.15 µM"}
{"compound": "Cc1cc([C@H]2C[C@H](O)[C@@H](CO)O2)c(F)cc1Cl", "cells": "HEL", "strain or isolate": "DAVIS", "result": ">200 µM"}
{"compound": "C=Cc1cn([C@H]2C[C@H](OC(=O)C3=CN(C)C=CC3)[C@@H](CO)O2)c(=O)[nH]c1=O", "cells": "HFF", "result": "76.5 µM"}
{"compound": "Cc1cn(C(CF)CCCO)c(=O)[nH]c1=O", "cells": "HEL", "strain or isolate": "DAVIS", "result": ">50 µg/mL"}
{"compound": "N#Cc1cc([C@H]2C[C@H](O)[C@@H](CO)O2)c(F)cc1F", "cells": "HEL", "strain or isolate": "AD169", "result": ">200 µM"}
{"compound": "CO[C@H](CO)[C@@H](O)CCn1cc(C)c(=O)[nH]c1=O", "cells": "HEL", "strain or isolate": "DAVIS", "result": ">400 µg/mL"}
{"compound": "CC[C@@]1(Cl)C(=O)NC(=O)N([C@H]2C[C@H](O)[C@@H](CO)O2)[C@H]1OC", "cells": "HFF", "strain or isolate": "AD169", "result": "0.04 µM"}
{"compound": "CCCCCCCCCCC#Cc1c[nH]c(=O)[nH]c1=O", "cells": "HEL", "strain or isolate": "AD169", "result": ">80 µM"}
{"compound": "COC(=O)[C@H](C)NP(=O)(OCC1C/C1=C/n1cnc2c(NC3CC3)nc(N)nc21)Oc1ccccc1", "cells": "HFF", "strain or isolate": "AD169", "result": "0.9 µM"}
{"compound": "CCCCCCCC#Cc1cn(S(=O)(=O)c2ccc(C)cc2)c(=O)[nH]c1=O", "cells": "HEL", "strain or isolate": "DAVIS", "result": ">16 µM"}
{"compound": "CC[C@@]1(Br)C(=O)NC(=O)N([C@H]2C[C@H](O)[C@@H](CO)O2)[C@H]1OC", "cells": "HFF", "strain or isolate": "AD169", "result": "0.28 µM"}
{"compound": "OC[C@H]1O[C@@H](c2cc(F)c(F)cc2F)C[C@@H]1O", "cells": "HEL", "strain or isolate": "DAVIS", "result": ">200 µM"}
{"compound": "CCCCCC#Cc1c[nH]c(=O)[nH]c1=O", "cells": "HEL", "strain or isolate": "DAVIS", "result": ">80 µM"}
{"compound": "Cc1ccn2c(CSCc3ccccc3)c(C3CC3C)nc2c1", "cells": "HEL", "strain or isolate": "AD169", "result": "2 µg/mL"}
{"compound": "CC1=CC(CO)(CO)C[C@H]1n1ccc(N)nc1=O", "cells": "HEL", "strain or isolate": "AD169", "result": ">100 µg/mL"}
{"compound": "Nc1nc2c(ncn2COCCO)c(=O)[nH]1", "cells": "HFF", "strain or isolate": "AD169", "result": "0.75 µM"}
{"compound": "Cc1ccn2c(CSCc3ccccc3)c(C(C)(C)C)nc2c1", "cells": "HEL", "strain or isolate": "AD169", "result": "1 µg/mL"}
{"compound": "Nc1nc2c(ncn2CCCC(O)CF)c(=O)[nH]1", "cells": "HEL", "strain or isolate": "AD169", "result": ">50 µg/mL"}
{"compound": "C[C@@H](NC(=O)C1(Cc2ccccc2)CCN1C(=O)OCc1ccccc1)C(N)=O", "cells": "HEL", "strain or isolate": "DAVIS", "result": ">400 µM"}
{"compound": "Cc1cc([C@H]2C[C@H](O)[C@@H](CO)O2)c(F)cc1F", "cells": "HEL", "strain or isolate": "DAVIS", "result": ">200 µM"}
{"compound": "Nc1nc2c(ncn2COCOCP(=O)(O)O)c(=O)[nH]1", "cells": "MRC-5", "result": "5 µg/mL"}

4 of the rows above, restated:

compound,cells,strain or isolate,result
Nc1ncnc2c1ncn2CCCC(O)CF,HEL,DAVIS,>50 µg/mL
COC(=O)[C@H](C)NP(=O)(OC[C@H]1C/C1=C/n1cnc2c(=O)[nH]c(N)nc21)Oc1ccccc1,HFF,AD169,7.6 µM
Cc1ccn2c(CSCc3ccccc3)c(-c3cccs3)nc2c1,HEL,DAVIS,7 µg/mL
CN1C=CCC(C(=O)O[C@H]2C[C@H](n3cc(I)c(=O)[nH]c3=O)O[C@@H]2CO)=C1,HFF,-,178 µM

ECn: concentration that inhibits the pathogen or its effect by n%. Neighbouring rows are from separate reports. a–b is a range or a potency band.